This series is described as follows: EPR spin trapping (DMPO): activation of AcEPs by Fe2+. The settings on record: 500 µM compound (200 µM AQ), 500 µM FeSO4, 40 mM DMPO, H2O, 5 min, 25 °C.

With `O=C1c2ccccc2C(=O)c2ccccc21` [AQ, anthraquinone, reference compound], the “DMPO spin adduct formation on reaction with Fe^2+ (EPR)” value (“DMPO spin adduct formation on reaction” for short) was “did not show EPR signals of spin adducts”.
For `CC12OOC(C)(c3ccccc31)c1ccccc12` [AcEP1118, 9,10-dimethyl-9,10-dihydro-9,10-epidioxidoanthracene] the value was “showed six-line EPR spectra”.
For `CC12OOC(c3ccccc31)c1ccccc12` [AcEP1129, 9-methyl-9,10-dihydro-9,10-epidioxidoanthracene] the value was “showed six-line EPR spectra”; for `c1ccc2c(c1)C1OOC2c2ccccc21` [AcEP1117, 9,10-dihydro-9,10-epidioxidoanthracene], “did not result in detectable DMPO adducts”.
With `c1ccc2cc3ccccc3cc2c1` [Ac, anthracene], the “DMPO spin adduct formation on reaction” value is recorded as “did not show EPR signals of spin adducts”.
`CCc1ccc2c(c1)C1OOC2c2ccccc21` (stereo not drawn) [AcEP1130, 2-ethyl-9,10-dihydro-9,10-epidioxidoanthracene]: the “DMPO spin adduct formation on reaction” value is given as “did not result in detectable DMPO adducts”.
